Assay results published in PMC4171701.

Test system: OC[C@H]1O[C@H](O[C@H]2[C@H](O)[C@@H](O)C(O)O[C@@H]2CO)[C@H](O)[C@@H](O)[C@@H]1O
Experiment: purified protein
Details: pH 8.0; 37.0 °C

MtbMaK (Mycobacterium tuberculosis H37Rv)
Km: 2490 µM
